Compound potency records, mixed from different reports. Data source: NIAID ChemDB in PubChem.

Common to all: cytotoxicity tests; endpoint: CC50

Rows are shuffled and stem from different studies. Two numbers with a dash give a range or band. CCn: concentration that lowers growth or viability of the cells by n%. Blank or dashed fields: not listed here.

smiles | cells | method | result
Nc1nc(N)c2ncn(C[C@@H](CO)OCP(=O)(O)O)c2n1 | HSB-2 | - | 99 µg/mL
COc1cc([C@@H]2c3cc4c(cc3[C@H](OC(C)=O)[C@@H]3COC(=O)[C@@H]23)OCO4)cc2nccnc12 | HT-29 | - | 0.56 µM
Cc1ccc(C(=O)Nc2ccc(S(=O)(=O)O)c3cc(S(=O)(=O)O)cc(S(=O)(=O)O)c23)cc1NC(=O)c1cccc(NC(=O)Nc2cccc(C(=O)Nc3cc(C(=O)Nc4ccc(S(=O)(=O)O)c5cc(S(=O)(=O)O)cc(S(=O)(=O)O)c45)ccc3C)c2)c1 | HuT-78 | - | 55 µM
CC(=O)c1c(O)c(C)c(O)c2c1OC1=CC(=O)/C(=C(/C)N[C@@H](Cc3cnc[nH]3)C(=O)O)C(=O)[C@@]12C | L6 | resazurin | 67.36 µM
Cc1cccc2c1OP(=O)(OC[C@H]1O[C@@H](n3cc(/C=C/Br)c(=O)[nH]c3=O)C[C@@H]1OC(=O)[C@H](N)Cc1ccccc1)OC2 | P3HR-1 | - | 16 µg/mL
CCCN(CCC)c1c([N+](=O)[O-])cc(C(F)(F)F)cc1[N+](=O)[O-] | Fibroblast | - | >100 µM
COc1cc(-c2ccc(O)cc2)cc(OC)c1O | 1A2 | XTT / absorbance | 75.57 µM
CC(=O)c1c(O)c(C)c(O)c2c1OC1=CC(=O)/C(=C(/C)NCCCC(=O)O[C@@H]3O[C@@H]4OCC5(C)CC6[C@H](C)CC[C@@H]([C@H]3C)[C@]64OO5)C(=O)[C@@]12C | L6 | resazurin | 0.816 µM
Nc1ccn([C@H]2C=C[C@@H](CO)O2)c(=O)n1 | ATH8 | - | 30 µM
Cc1ccc(C(O)c2cc(C34CC5CC(CC(C5)C3)C4)c3ccccc3n2)cc1 | Mouse fibroblasts | MTT / absorbance | >200 µg/mL
Nc1nc2c(ncn2COC(CO)CO)c(=O)[nH]1 | HSB-2 | - | 15 µg/mL
CCCc1cc(=O)oc2c3c(c4c(c12)OC(C)(C)C=C4)O[C@H](C)[C@@H](C)[C@@H]3O | AA5 | - | 10–20 µM
NC(=O)c1ncn([C@@H]2O[C@H](CO)[C@@H](O)[C@H]2O)n1 | CV-1 | - | 33 µg/mL
O=C(NC1NC(c2ccccc2)(c2cccc(Cl)c2)c2ccccc2NC1=O)C1CCCCC1 | HEP-2 | - | 2 µM
COc1cc(O)cc(O)c1C(=O)c1cc(O)cc(O)c1 | 1A2 | XTT / absorbance | >452 µM
Cc1[nH]c2ccccc2c1CC(=O)NC(Cc1ccccc1)C(=O)N(C)c1ccccc1 | U-87 | MTT | 75 µM
COc1cc2c3cc1Oc1c4c(cc5c1[C@H](Cc1ccc(cc1)Oc1cc(ccc1OCCOCc1ccccc1)C[C@H]3N(C)CC2)N(C)CC5)OCO4 | U1 | MTT | 0.68 µg/mL
O=C(O)c1cc2c(s1)c(C1CCCCC1)c(-c1ccc(Oc3ccccc3)cc1)n2CC(=O)N1CCOCC1 | Huh7 | - | >65 µM
Nc1ccn(C[C@@H](CO)OCP(=O)(O)O)c(=O)n1 | RPTECs (clinical isolate 2) | ATP | 308 µM
COc1ccccc1C(=O)NC1N=C(c2cccc(C(F)(F)F)c2)c2ccccc2NC1=O | HEP-2 | - | 5 µM
CCCc1cc(=O)oc2c3c(c4c(c12)OC(C)(C)C=C4)O[C@@H](C)[C@H](C)[C@@H]3O | AA5 | - | 10–20 µM
CN(C)C(=O)Cn1c(-c2ccccc2)c(C2CCCCC2)c2sc(C(=O)O)cc21 | Huh7 | - | >72.5 µM
COc1cc(OC(C)C(C)(C)C)cc(OC)c1/C=C/COC(C)C(C)(C)C | C8166 cells | MTT | 3.03 µM
CC(=O)c1c(O)c(C)c(O)c2c1OC1=CC(=O)/C(=C(/C)NCc3ccncc3)C(=O)[C@@]12C | L6 | resazurin | 23.94 µM
O=[N+]([O-])c1cc(Cl)c(Cl)cc1[N+](=O)[O-] | E6SM | - | 4 µg/mL
Nc1ncnc2c1ncn2[C@H]1C=C[C@@H](CO)O1 | ATH8 | - | 75 µM
CC(C)[Si]1(C(C)C)OC[C@H]2O[C@@H](n3cnc4cc(Cl)c(Cl)cc43)[C@H](O)[C@H]2O[Si](C(C)C)(C(C)C)O1 | E6SM | - | ≥40 µg/mL
COc1cc2c3cc1Oc1c4c(cc5c1[C@H](Cc1ccc(cc1)Oc1cc(ccc1OCCN1CCNCC1)C[C@H]3N(C)CC2)N(C)CC5)OCO4 | U1 | MTT | 1.2 µg/mL
Cc1cn([C@H]2C[C@H](N=[N+]=[N-])[C@@H](CO)O2)c(=O)[nH]c1=O | ATH8 | - | 40 µM
COc1c2c(c(C(=O)c3ccccc3)c3c1C=CC(C)(C)O3)OC(C)(C)C=C2 | 1A2 | XTT / absorbance | 239 µM
CCC(O)c1cc(C23CC4CC(CC(C4)C2)C3)c2ccccc2n1 | Mouse fibroblasts | MTT / absorbance | >200 µg/mL
CO[C@H]1/C=C/O[C@@]2(C)Oc3c(C)c(O)c4c(O)c(c(/C=N/N5CCN(C)CC5)c(O)c4c3C2=O)NC(=O)/C(C)=C\C=C\[C@H](C)[C@H](O)[C@@H](C)[C@@H](O)[C@@H](C)[C@H](OC(C)=O)[C@@H]1C | RAW 264.7 | MTT | 0.01 µM
Nc1ncnc2c1ncn2[C@H]1C=C[C@H](O)[C@@H]1O | CV-1 | - | 100 µg/mL
O=C(CCCN1CCC(O)(c2ccc(Cl)cc2)CC1)c1ccc(N2CCCCC2)cc1 | COSA5 | - | 100 µM
Clc1cc2nc[nH]c2cc1Cl | E6SM | - | ≥40 µg/mL
O=c1[nH]c(=O)n([C@H]2C[C@H](O)[C@@H](CO)O2)cc1/C=C/Br | H4 | - | 200 µg/mL
CC(=O)OC(C1CC(C)C(=O)O1)C(C)C1C2C3(O)OC4(CCC12C)C(=CCC1C(C)(C)OC2CC(=O)OC21C4O)C3=O | HL-60 | MTT | 2.44 µg/mL
O=C(CCCN1CCC(O)(c2ccc(NC3CCCCC3)cc2)CC1)c1ccc(F)cc1 | COSA5 | - | 35 µM
CC(C)(C)C1CCC(c2cc(C(=O)NN)nc3ccccc23)CC1 | Mouse fibroblasts | MTT / absorbance | >200 µg/mL
O=c1[nH]c(=O)n([C@H]2C[C@H](O)[C@@H](CO)O2)cc1/C=C/Br | E6SM | - | >400 µg/mL
CCCc1c([Se]c2ccccc2)n(COCCO)c(=O)[nH]c1=O | MT-2 | MTT | >61.5 µM
CN(C)c1ccc(C(=O)NC2N=C(c3ccccc3)c3ccccc3NC2=O)cn1 | HEP-2 | - | 6.9 µM
COC(=O)[C@@H]1[C@H](c2cc(OC)c3nccnc3c2)c2cc3c(cc2C2=NOC[C@@H]21)OCO3 | P-388 | - | 2.8 µM
Nc1nc2c(ncn2COCCO)c(=O)[nH]1 | P3HR-1 | - | >100 µg/mL
OC[C@H]1O[C@H](n2cnc3cc(Cl)c(Cl)cc32)[C@@H](O)[C@H]1O | E6SM | - | ≥400 µg/mL
Cc1c(C(=O)O)sc2c(C3CCCCC3)c(-c3ccccc3)n(CC(=O)N(C)C3CCN(C(C)C)C3)c12 | Huh7 | - | >3.25 µM
COc1cc([C@@H]2c3cc4c(cc3[C@H](OC(C)=O)[C@@H]3COC(=O)[C@@H]23)OCO4)cc(OC(C)=O)c1OC(C)=O | P-388 | - | 2.2 µM
Nc1ncnc2c1ncn2[C@@H]1O[C@H](OCP(=O)(O)O)C=C1F | RPTECs (clinical isolate 1) | ATP | >2000 µM
CC(C)CNC(=O)c1c(C(=O)O)sc2c(C3CCCCC3)c(-c3ccc(Cl)cc3)n(C)c12 | Huh7 | - | >770 µM
COc1cc2c3cc1Oc1c4c(cc5c1[C@H](Cc1ccc(cc1)Oc1cc(ccc1OCCNCc1ccccc1)C[C@H]3N(C)CC2)N(C)CC5)OCO4 | U1 | MTT | 0.77 µg/mL
OC[C@H]1O[C@@H](n2cnc3cc(Cl)c(Cl)cc32)[C@@H](O)[C@@H]1O | E6SM | - | 40 µg/mL
C[C@H]1C(=O)CC[C@@H]2[C@]1(C)CC[C@H]1[C@@]2(C)CC[C@@]2(C)C[C@](C)(CCC(=O)O)CC[C@]12C | Hep2.2.15 | sulforhodamine | 170.5 µM
CC(C)OC(=O)[C@H](C)N[P@](=O)(CO[C@H](C)Cn1cnc2c(N)ncnc21)Oc1ccccc1 | RPTECs (clinical isolate 1) | ATP | 22 µM
COC(=O)[C@@H]1[C@H](c2cc(OC)c3nc4cc(C)c(C)cc4nc3c2)c2cc3c(cc2C2=NOC[C@@H]21)OCO3 | P-388 | - | 1 µM
CC(C)N1CCC(N(C)C(=O)Cn2c(-c3ccccc3)c(C3CCCCC3)c3sc(C(=O)O)cc32)C1 | Huh7 | - | >13.75 µM
COc1cc([C@@H]2c3cc4c(cc3[C@H](OC(C)=O)[C@@H]3COC(=O)[C@@H]23)OCO4)cc(O)c1O | HT-29 | - | 5.84 µM
O=c1ccn([C@H]2C=C[C@@H](CO)O2)c(=O)[nH]1 | ATH8 | - | 107 µM
NC[C@H]1O[C@H](O[C@H]2[C@H](O)[C@@H](O)[C@H](N)C[C@@H]2N)[C@H](N)[C@@H](O)[C@@H]1O | HEK293T | MTT | 21 µM
COc1c2c(c3c(c1C(=O)c1cccc(O)c1)OC(C)(C)C=C3)OC(C)(C)C=C2 | 1A2 | XTT / absorbance | >392 µM
COC1CCC(c2cc(C(=O)NN)nc3ccccc23)CC1 | Mouse fibroblasts | MTT / absorbance | >200 µg/mL
C[C@H](Cn1cnc2c(N)ncnc21)OCP(=O)(O)O | RPTECs (clinical isolate 2) | ATP | >2000 µM
O=C(CCCN1CCC(O)(c2ccc(Cl)cc2)CC1)c1ccc(F)cc1 | COSA5 | - | 500 µM
Nc1nc2c(ncn2[C@@H]2O[C@H](CO)[C@H]2CO)c(=O)[nH]1 | P3HR-1 | - | 4.9 µg/mL
CN1CCn2c(c(C3CCCCC3)c3sc(C(=O)O)cc32)-c2ccccc2C1 | Huh7 | - | >15.5 µM
CCCC(O)c1cc(C23CC4CC(CC(C4)C2)C3)c2ccccc2n1 | Mouse fibroblasts | MTT / absorbance | >200 µg/mL
Cc1cn([C@H]2C[C@H](N=[N+]=[N-])[C@@H](CO)O2)c(=O)[nH]c1=O | U-937/HIV-1(IIIB) | - | >100 µg/mL
O=C(CCCN1CCC(O)(c2ccc(Cl)cc2)CC1)c1ccc(NC2CCCCC2)cc1 | COSA5 | - | 25 µM
COC(=O)[C@H]1[C@@H]2CON=C2c2cc3c(cc2[C@H]1C1=CC(=O)C(=O)C(OC)=C1)OCO3 | MEL-28 | - | 12 µM
NNC(=O)c1ccncc1 | Mouse fibroblasts | MTT / absorbance | >200 µg/mL
NC(=O)c1sc2nccc(Nc3ccccc3)c2c1N | U1 | MTT | 53 µM
Nc1ncnc2c1ncn2CCOCP(=O)(O)O | P3HR-1 | - | 100 µg/mL
COc1cc([C@@H]2c3cc4c(cc3[C@H](OC(C)=O)[C@@H]3COC(=O)[C@H]23)OCO4)cc2c1OCCO2 | HT-29 | - | 2.2 µM
O=C(O)c1cc2c(s1)c(C1CCCCC1)c(-c1ccccc1)n2Cc1ccncc1 | Huh7 | - | >105 µM
CCC(NC(=O)C1CCC1C(=O)[C@@H](NC(=O)[C@@H](NC(=O)c1cnccn1)C1CCCCC1)C(C)(C)C)C(=O)C(=O)NC1CC1 | PBM | - | >100 µM
COC1=CC([C@@H]2c3cc4c(cc3[C@H](O)[C@@H]3COC(=O)[C@H]32)OCO4)=CC(=O)C1=O | HT-29 | - | 1.3 µM